Results of unrelated studies side by side (data: NIAID ChemDB).

All rows: tests in culture; species: Herpes simplex virus 1; method: ELISA; read-out: EC50

ECn: concentration that inhibits the pathogen or its effect by n%.

CC[C@@H](N(C)C(=O)[C@@H](NC(=O)[C@@H](CC(=O)[C@@H](NC(=O)[C@H](C(C)C)N(C)C(=O)[C@@H](CC1CCCCC1)C(C)C)C(C)(C)C)CC(=O)C(C)(C)C)C1(C(=O)O)CCCC1)C(C)(C)C ; cells: BHK-21 ; result: 0.2 µM
O=Cc1c(Cl)n([C@@H]2O[C@H](CO)[C@@H](O)[C@H]2O)c2cc(Cl)c(Cl)cc12 ; cells: BSC-1 ; result: 40 µM
CC[C@@H](NC(=O)[C@@H](CC(=O)[C@@H](CC(=O)[C@@H](NC(=O)[C@H](C(C)C)N(C)C(=O)[C@H](C)CC1CCCCC1)C(C)(C)C)CC(=O)C(C)(C)C)C1(C(=O)O)CCCC1)C(C)(C)C ; strain: KOS ; cells: BHK-21/C13 ; result: 0.43 µM
COc1cc(OC)c(NC(=S)Nc2ccc(NC(=O)c3ccccc3Cl)cc2)cc1Cl ; cells: VERO ; result: 0.125 µg/mL
CCCCNc1c(C=O)c2cc(Cl)c(Cl)cc2n1[C@@H]1O[C@H](CO)[C@@H](O)[C@H]1O ; cells: BSC-1 ; result: 15 µM
Cc1cc2nc3c4ccccc4n(Cc4ncc[nH]4)c3nc2cc1C ; strain: C42 ; cells: RK-13 ; result: 12.3 µM
Clc1cc2nc(Cl)c(COCc3ccccc3)n2cc1Cl ; strain: KOS ; cells: BSC-1 ; result: >100 µM
CN(C)c1c(C#N)c2cc(Cl)c(Cl)cc2n1[C@@H]1O[C@H](CO)[C@@H](O)[C@H]1O ; cells: BSC-1 ; result: >100 µM
CC(NC(=S)Nc1ccc(NC(=O)c2ccccc2F)cc1C#N)c1ccc(F)cc1 ; strain: Patton ; cells: HFF ; result: >10 µg/mL
C=CCOCc1c(Cl)nc2ccc(Cl)cn12 ; strain: KOS ; cells: BSC-1 ; result: 45 µM
Cc1cc2nc3c4ccccc4n(CCN(C)C)c3nc2cc1C ; strain: C42 ; cells: A549 ; result: 2.19 µM
COc1ccccc1C(=O)Nc1ccc(NC(=S)NCCc2cc3ccccc3o2)cc1 ; cells: VERO ; result: >10 µg/mL
OCC(O)COCc1c(Cl)nc2cc(Cl)c(Cl)cn12 ; strain: KOS ; cells: BSC-1 ; result: >100 µM
COc1cc(OC)c(NC(=S)Nc2ccc(NC(=O)c3ccccc3F)cc2Cl)cc1Cl ; strain: E-377 ; cells: HFF ; result: 0.7 µg/mL
CCCCNc1c(C#N)c2cc(Cl)c(Cl)cc2n1[C@@H]1O[C@H](CO)[C@@H](O)[C@H]1O ; cells: BSC-1 ; result: >100 µM

2 of the rows above, restated:

SMILES,strain,cells,result
OCC(O)COCc1c(Cl)nc2cc(Cl)c(Cl)cn12,KOS,BSC-1,>100 µM
C=CCOCc1c(Cl)nc2ccc(Cl)cn12,KOS,BSC-1,45 µM

Rows are shuffled and stem from different studies.